Compound potency records, mixed from different reports. Data source: NIAID ChemDB in PubChem.

Shared fields: growth or infection tests; organism: HIV-1; read by: p24; endpoint: fold resistance

a–b is a range or a potency band. Blank or dashed fields: not listed here. Fold resistance has wild type as its base. Neighbouring rows are from separate reports.

smiles	cell line	strain	changes	result
CCN1c2ncc(CCOc3ccc(C(=O)O)c4c3CCCC4)cc2C(=O)N(C)c2ccc(C)nc21	C8166	-	RT-K103N Y181C	1
CC(C)[C@H](NC(=O)OCc1ccccn1)C(=O)N[C@@H](Cc1ccccc1)[C@@H](O)C[C@H](Cc1ccccc1)NC(=O)OCc1cccnc1	MT-4	NL4-3	PR-L63P	1.875
CCN1c2ncc(CCOc3ccc(/C=C(\C)C(=O)O)c4ccccc34)cc2C(=O)N(C)c2ccc(Cl)nc21	C8166	-	RT-K103N Y181C	1
CCN1c2ncc(CCOc3ccc(C(=O)Nc4ccc(CC(=O)O)cc4)cc3C)cc2C(=O)N(C)c2cccnc21	C8166	-	RT-K103N Y181C	>1
CCNC(=O)N1CCc2c(OCCc3cnc4c(c3)C(=O)N(C)c3cccnc3N4CC)ccc(C(=O)O)c2C1	C8166	-	RT-K103N Y181C	1–10
CCCCCCCCCCCCCCCCCCOCCOP(=O)(O)CO[C@H](CO)Cn1cnc2c(N)ncnc21	MT-2	-	RT-K103N	0.875
Nc1nc(NC2CC2)c2ncn([C@H]3C=C[C@@H](CO)C3)c2n1	MT-4	XM-M184V	RT-M184V	5
CCN1c2ncc(CCOc3ccc(C(=O)NN)cc3C)cc2C(=O)N(C)c2cccnc21	C8166	-	RT-K103N Y181C	1
CCc1cc(=O)c2ccc3c(c2o1)[C@@H](OC(=O)C12CCC(C)(C(=O)O1)C2(C)C)[C@@H](OC(=O)C12CCC(C)(C(=O)O1)C2(C)C)C(C)(C)O3	MT-4	RTMDR1	RT-M41L L74V V106A T215Y	4.28
CCN1c2ncc(CCOc3ccc(-c4cccc(C(=O)O)c4)cc3)cc2C(=O)N(C)c2cccnc21	C8166	-	RT-K103N Y181C	>1
CCN1c2ncc(CCOc3ccc(/C=C(\C)C(=O)O)c4ccccc34)cc2C(=O)N(C)c2cccnc21	C8166	-	RT-K103N Y181C	1
CCN1c2ncc(CCOc3ccc(-c4ccc(CCC(=O)O)cc4)cc3C)cc2C(=O)N(C)c2cccnc21	C8166	-	RT-K103N Y181C	>1
CCN1c2ncc(CCOc3ccc(CCC(=O)O)c4ccccc34)cc2C(=O)N(C)c2ccc(Cl)nc21	C8166	-	RT-K103N Y181C	1
CCN1c2ncc(CCOc3ccc(NC(=O)C4CC4C(=O)O)cc3C)cc2C(=O)N(C)c2cccnc21	C8166	-	RT-K103N Y181C	>5
Cc1cn([C@H]2C=C[C@@H](CO)O2)c(=O)[nH]c1=O	MT-4	XM-AZT-resistant	RT-M41L D67N K70R T215Y K219Q	2.3
CC(C)=CCOc1cc(NC(=S)c2ccsc2C)ccc1Cl	CEM + CEM-SS	NL4-3	RT-K101E	1
CCCCCCCCCCCCCCCCOCCCOP(=O)(O)CO[C@H](CO)Cn1cnc2c(N)ncnc21	MT-2	-	RT-K65R	22.8
CCN1c2ncc(CCOc3cccc4c3ccc[n+]4[O-])cc2C(=O)N(C)c2ccc(Cl)nc21	C8166	-	RT-K103N Y181C	27.5
CCN1c2ncc(CCOc3ccc4cc(C(=O)NC(C)(C)C(=O)O)ccc4c3)cc2C(=O)N(C)c2cccnc21	C8166	-	RT-K103N Y181C	1–10
CCN1c2ncc(CCOc3ccc(-c4ccc(CC(=O)O)cc4)cc3C)cc2C(=O)Nc2c(C)ccnc21	C8166	-	RT-K103N Y181C	1
CCN1c2ncc(CCOc3ccc(C(=O)O)c4c3CCCC4)cc2C(=O)N(C)c2ccc(Cl)nc21	C8166	-	RT-K103N Y181C	1
CCN1c2ncc(CCOc3ccc(-c4csc(C(=O)O)c4)cc3C)cc2C(=O)N(C)c2cccnc21	C8166	-	RT-K103N Y181C	>1

A second listing of 2 rows from above:

{"smiles": "CCN1c2ncc(CCOc3cccc4c3ccc[n+]4[O-])cc2C(=O)N(C)c2ccc(Cl)nc21", "cell line": "C8166", "changes": "RT-K103N Y181C", "result": "27.5"}
{"smiles": "CCN1c2ncc(CCOc3ccc(C(=O)Nc4ccc(CC(=O)O)cc4)cc3C)cc2C(=O)N(C)c2cccnc21", "cell line": "C8166", "changes": "RT-K103N Y181C", "result": ">1"}